Laboratory results reported in patent US20210389324.

Assays:
[1] = tested on: CFP-MYH6/7-YFP (23-residue)
[2] = tested on: CFP-MYH6/7-YFP (16-residue)

Recombinant MERS-CoV-2 Papain-like Protease
cleavage of CFP-YFP substrate [1]: The MERS PLpro showed minor cleavage of the cardiac myosin sequences | cleavage of CFP-YFP substrate [2]: The MERS PLpro showed minor cleavage of the cardiac myosin sequences
